Measured values from several laboratories, pooled; numbers as filed in NIAID ChemDB.

Common to all: toxicity to cultured cells; cells: HepG2; read-out: CC50

CCn: concentration that lowers growth or viability of the cells by n%.

compound,setting,read by,result
CC(C)CNCCO[C@H]1O[C@@H]2OC3(C)CCC4[C@H](C)CCC([C@H]1C)[C@]42OO3,,ATP / luminescence,>16 µM
Nc1nc(N)c2ncn([C@H]3CO[C@@H](CO)O3)c2n1,,,>50 µM
Cc1cn([C@H]2C[C@H](N)[C@@H](CO)O2)c(=O)[nH]c1=O,,,120 µM
O=C(N/N=C/C12CC3CC(CC(C3)C1)C2)c1ccncc1,,luminescence,100 µg/mL
OC(COc1ccc(OCc2ccccc2)cc1)CN1CCCCC1,,cell count / luminescence,>27.1 µM
O=C(N/N=C/C12CC3CC(C1)CC(C1CCCC1)(C3)C2)c1ccncc1,,luminescence,37.5 µg/mL
C/C(=N\OCc1ccc(F)cc1)c1c(C)cc(=O)n(O)c1O,3 d,MTS,65.5 µM
C[C@H]1C(OC(=O)Cc2ccccc2)O[C@@H]2OC3(C)CCC4[C@H](C)CCC1[C@]42OO3,,ATP / luminescence,>26 µM
O=C(N/N=C/C12CC3CC(C1)CC(c1ccccc1)(C3)C2)c1ccncc1,,luminescence,25 µg/mL
c1ccc2cc(OCCCCCN3CCCCC3)ccc2c1,,cell count / luminescence,8.43 µM
O=C(N/N=C/c1ccc(C2C3CC4CC(C3)CC2C4)cc1)c1ccncc1,,luminescence,9.7 µg/mL
O=c1[nH]cnc2c1ncn2[C@H]1CC[C@@H](CO)O1,,neutral red,360 µM
Cc1cn([C@@H]2C[C@@H](N)[C@H](CO)O2)c(=O)[nH]c1=O,,,>200 µM
Cc1cccc(Nc2nnc(C(C)(O)c3nc(C)cs3)s2)n1,,resazurin / fluorescence,>100 µM
Cc1cn([C@H]2C=C[C@@H](CO)O2)c(=O)[nH]c1=O,,,>200 µM
O=C(N/N=C/C12CC3CC(C1)CC(/C=N/NC(=O)c1ccncc1)(C3)C2)c1ccncc1,,luminescence,>100 µg/mL
CC(NCc1ccc(OCc2ccccc2)cc1)C(O)c1ccccc1,,cell count / luminescence,>30.8 µM
C[C@@H]1CCC2[C@@H](C)[C@@H](OCCN3CCCCC3)O[C@@H]3OC4(C)CCC1[C@@]23OO4,,ATP / luminescence,>31.7 µM
Cc1cn([C@@H]2C[C@@H](F)[C@H](CO)O2)c(=O)[nH]c1=O,,,>200 µM
C[C@H](Cn1cnc2c(N)ncnc21)OCP(=O)(O)O,,neutral red,399 µM
Cc1cn([C@H]2C[C@H](N=[N+]=[N-])[C@@H](CO)O2)c(=O)[nH]c1=O,,,>200 µM
Cc1csc(C(C)(O)c2nnc(Nc3cccc(Br)n3)s2)n1,,resazurin / fluorescence,>50 µM

The last 2 rows once more:

Cc1cn([C@H]2C[C@H](N=[N+]=[N-])[C@@H](CO)O2)c(=O)[nH]c1=O ; result: >200 µM
Cc1csc(C(C)(O)c2nnc(Nc3cccc(Br)n3)s2)n1 ; read by: resazurin / fluorescence ; result: >50 µM

Blank or dashed fields: not listed here. Neighbouring rows are from separate reports.